Compound potency records, mixed from different reports. Data source: NIAID ChemDB in PubChem.

All rows: whole-cell or culture tests; species: Mycobacterium tuberculosis

MIC bound comes from a single tested concentration.

SMILES,strain or isolate,method,cells,tested at,conditions,endpoint,mutations,value
Cc1c2c(c(O)c3c(O)cccc13)C(=O)C1(O)C(O)=C(C(=O)NCNc3ccc(C(N)=O)cn3)C(=O)C(N(C)C)C1C2.Cl,H37Rv,BACTEC,,12.5 µg/mL,,inhibition,,-20%
O=c1oc2ccc(F)cc2c(=S)n1-c1ccc(C(F)(F)F)cc1,My 331/88,,,,14 d,MIC,,2 µM
O=C(O)c1cn(C2CC2)c2cc(N3CCN(C/C(=N/O)c4ccc(Br)cc4)CC3)c(F)cc2c1=O,H37Rv,,,,,EC50,,<6.25 µg/mL
CCCCn1c(-c2cc3ccccc3oc2=O)cs/c1=N\N=C\c1ccc(O)c(OCC)c1,H37Rv,,,12.5 µg/mL,,inhibition,,94%
CCn1c2ccccc2nc2cc3c(cc21)c(Cl)c(=O)c1ccccc13,H37Rv,BACTEC,,,,MIC,,12.5 µg/mL
O=c1oc2ccccc2cc1-c1cs/c(=N\N=C\c2cc(Br)ccc2O)n1C1CCCCC1,H37Rv,,,,,EC50,,<12.5 µg/mL
CC(=O)Nc1ccc(OCC(=O)NN2C(=O)C(C)SC2c2ccccc2)cc1,H37Rv,,,,,EC50,,>12.5 µg/mL
O=C1NC(=S)N/C1=C/c1cccc(OCc2ccc(Cl)cc2)c1,H37Rv,,,6.25 µg/mL,,inhibition,,95%
CO[C@H]1/C=C/O[C@@]2(C)Oc3c(C)c(O)c4c(O)c(c(/C=N/Nc5ccc([N+](=O)[O-])cc5[N+](=O)[O-])c(O)c4c3C2=O)NC(=O)/C(C)=C\C=C\[C@H](C)[C@H](O)[C@@H](C)[C@@H](O)[C@@H](C)[C@H](OC(C)=O)[C@@H]1C,H37Rv,BACTEC,VERO,,,MIC,,1.6 µg/mL
CO/N=C1\CN(c2nc3c(cc2F)c(=O)c(C(=O)O)cn3C2CC2)CC1CN,206 isolates (susceptible),,,,,Mean MIC,,4.878 µg/mL
Cn1c(=O)c(N=Nc2ccccc2[N+](=O)[O-])c(O)c2ccccc21,H37Rv,resazurin,,6.25 µg/mL,,inhibition,,94%
COCCNCCNC[C@]1(C)CCC[C@]2(C)c3ccc(C(C)C)cc3CC[C@@H]12,,,,,,MIC,,12.5 µM
CC1=C(C(=S)Nc2ccc(Cl)c(C(=O)OC(C)C)c2)SCCO1,H37Rv,BACTEC,,,,MIC bound,,>12.5 µg/mL
O=c1[nH]c2c([N+](=O)[O-])cccc2c(O)c1N=Nc1ccccc1[N+](=O)[O-],H37Rv,resazurin,,,,MIC,,<6.25 µg/mL
O=C(c1ccc(Br)cc1)c1cn(-c2ccccc2)nn1,H37Rv,,,,,MIC,,>12.5 µg/mL
Fc1ccc2oc(=S)n(-c3cccc(Cl)c3)c(=S)c2c1,My 331/88,,,,14 d,MIC,,2 µM
Clc1ccc2c(c1)Nc1ccccc1S2,H37Rv,,,,,MIC,,>12.5 µg/mL
O=c1oc2ccccc2c(=O)n1-c1ccc(C(F)(F)F)cc1,CNCTC MY331/88,,,,,MIC,,8 µM
Cc1cccc(/C=N/Nc2ccccn2)n1,H37Rv,BACTEC,,12.5 µg/mL,,inhibition,,96%
CC1(C)[C@H]2CC[C@@H](CNCCNCC34CC5CC(CC(C5)C3)C4)[C@@H]1C2,,,,,,MIC,,3.13 µM
CCn1cc(C(=O)O)c(=O)c2cc(F)c(N3CCN(CC(=O)c4ccc(C)cc4)CC3)cc21,H37Rv,,,,,EC50,,>6.25 µg/mL
COc1ccc(C2SCC(=O)N2NC(=O)COc2ccc(NC(C)=O)cc2)cc1OC,H37Rv,,,12.5 µg/mL,,inhibition,,0%
O=C(Oc1ccc(Br)cc1C(=O)Nc1ccc(C(F)(F)F)cc1)c1cnccn1,multidrug resistant 53/2009,,,,21 d,MIC,,1 µM
CCn1cc(C(=O)O)c(=O)c2cc(F)c(N3CCN(C/C(=N/O)c4ccccc4)CC3)cc21,H37Rv,,,,,MIC,,>6.25 µg/mL
O=C(Oc1ccc(Cl)cc1C(=O)Nc1ccc(Cl)c(Cl)c1)c1cnccn1,multidrug resistant 7357/1998,,,,14 d,MIC,,0.125 µM
COc1cc(C=CC(=O)c2sc(Nc3ccccc3)nc2C)ccc1O,H37Rv,resazurin,,,,MIC bound,,>6.25 µg/mL
O=C(c1ccccc1)c1cn(-c2ccc(Cl)cc2)nn1,H37Rv,,,,,MIC,,>12.5 µg/mL
CCn1cc(C(=O)O)c(=O)c2cc(F)c(N3CCN(C/C(=N/O)c4ccc(F)cc4)CC3)cc21,H37Rv,,,6.25 µg/mL,,inhibition,,1%
O=C1NC(=S)N/C1=C/c1ccc(-c2ccccc2)cc1,H37Rv,,,,,EC50,,<6.25 µg/mL
CCn1c(-c2cc3cc(Br)ccc3oc2=O)cs/c1=N\N=C\c1cc(Br)ccc1O,H37Rv,,,,,MIC,,>12.5 µg/mL
O=C(Oc1ccc(Cl)cc1C(=O)Nc1cccc(C(F)(F)F)c1)c1cnccn1,multidrug resistant Praha 1,,,,21 d,MIC,,1 µM
O=c1oc2ccc(F)cc2c(=S)n1-c1cccc(Cl)c1,My 331/88,,,,14 d,MIC,,2 µM
C[C@@H]1[C@H]2C[C@@H](C[C@H]1NCCNC1CCCCCCC1)C2(C)C,,,,,,MIC,,6.25 µM
CC(=O)Nc1ccc(OCC(=O)N/N=C/c2ccccc2Cl)cc1,H37Rv,,,,,EC50,,>12.5 µg/mL
NC(=O)c1n[nH]c([C@H]2C[C@H](O)[C@@H](CO)O2)n1,H37Rv,BACTEC,,12.5 µg/mL,,inhibition,,14%
CCn1cc(C(=O)O)c(=O)c2cc(F)c(N3CCN(C/C(=N/O)c4ccc(Br)cc4)CC3)nc21,H37Rv,,,,,EC50,,>6.25 µg/mL
O=C1CC2OCCC3=CN4CCC56c7ccccc7N1C5C2C3CC46,H37Rv,BACTEC,,,,MIC bound,,>12.5 µg/mL
COc1ccc(C2SC(C)C(=O)N2NC(=O)COc2ccc(NC(C)=O)cc2)cc1OC,H37Rv,,,,,EC50,,>12.5 µg/mL
Cc1ccc(-n2c(=S)oc3ccc(Br)cc3c2=S)cc1,My 331/88,,,,14 d,MIC,,0.5 µM
Cc1ccc(C(=O)CN2CCN(c3cc4c(cc3F)c(=O)c(C(=O)O)cn4C3CC3)CC2)cc1,H37Rv,,VERO,,,MIC,,1.56 µg/mL
CC(=O)c1c(C)[nH]c(C(=O)N/N=C/c2ccc(N(C)C)cc2)c1C,H37Rv,resazurin,,,,MIC,,<6.25 µg/mL
S=C(Nc1ccccn1)c1ccccn1,H37Rv,resazurin,,6.25 µg/mL,,inhibition,,11%
O=C(Oc1ccc(Cl)cc1)c1cn(-c2ccccc2)nn1,H37Rv,,,12.5 µg/mL,,inhibition,,24%
N/C(COc1cccc(Cl)c1)=N/NC(=O)c1ccncc1,ATCC 35828 (pyrazinamide-resistant),,,,,MIC,,3.12 µg/mL
CC1COc2c(N3CCN(C)CC3)c(F)cc3c(=O)c(C(=O)O)cn1c23,206 isolates (susceptible),,,,,MIC50,,1 µg/mL
Cc1cccc(N=Nc2c(O)c3ccc(Cl)cc3[nH]c2=O)c1,H37Rv,resazurin,,,,MIC,,<6.25 µg/mL
C=CCOc1cccc(/C=C2/NC(=S)NC2=O)c1,H37Rv,,,,,EC50,,<6.25 µg/mL
O=C(c1cn(-c2ccc(Cl)cc2)nn1)c1ccc(Cl)cc1Cl,H37Rv,,,,,MIC,,>12.5 µg/mL
COc1ccc2oc(=O)n(-c3cccc(F)c3)c(=O)c2c1,CNCTC MY331/88,,,,,MIC,,62.5 µM
CCn1cc(C(=O)O)c(=O)c2cc(F)c(N3CCN(CC(=O)c4ccccc4)CC3)cc21,H37Rv,,VERO,,,EC50,,<6.25 µg/mL
O=C1NC(=S)N/C1=C/c1cccc(Oc2ccccc2)c1,H37Rv,,,6.25 µg/mL,,inhibition,,78%
CC(NCCNC[C@@H]1CC[C@H]2C[C@@H]1C2(C)C)c1cccc2ccccc12,,,,,,MIC,,50 µM
CC(=O)NC[C@H]1CN(c2ccc(N3CCOCC3)c(F)c2)C(=O)O1,H37Rv,resazurin,,,,MIC,,0.5 µg/mL
COc1ccccc1C1SC(c2ccccc2)(c2ccccc2)OC1=O,H37Rv,BACTEC,,12.5 µg/mL,,inhibition,,10%
O=C(c1cn(-c2ccccc2)nn1)c1ccc(Cl)cc1Cl,H37Rv,,,12.5 µg/mL,,inhibition,,49%
Cc1ccc2oc(=O)n(-c3ccccc3)c(=O)c2c1,CNCTC MY331/88,,,,,MIC,,32 µM
O=c1oc2ccccc2cc1-c1cs/c(=N\N=C\c2cc(Br)ccc2O)n1-c1ccccc1,H37Rv,,,,,MIC,,>12.5 µg/mL
CC(=O)Nc1ccc(OCC(=O)N/N=C/c2ccccc2)cc1,H37Rv,,,,,EC50,,>12.5 µg/mL
O=C(c1cn(-c2ccc(Cl)cc2)nn1)c1cccs1,H37Rv,,,,,MIC,,>12.5 µg/mL
O=C(Oc1ccc(Cl)cc1)c1cnccn1,331/88,,,,14 d,MIC,,250 µM
CCCCCCCCCCCNCCNCc1ccc(C(F)(F)F)cc1,,,,,,MIC,,25 µM
NC(=O)c1cnccn1,Isolate 9155 monodrug-resistant,,,,,MIC,,>300 µg/mL
CCCCn1c(-c2cc3cc(Br)ccc3oc2=O)cs/c1=N\N=C\c1ccc(Cl)cc1,H37Rv,,,12.5 µg/mL,,inhibition,,71%
O=c1oc2ccccc2c(=O)n1-c1ccc(Cl)cc1,CNCTC MY331/88,,,,,MIC,,31 µM
Cc1cccc(OC/C(N)=N\NC(=O)c2ccncc2)c1,ATCC 35822 (isoniazid-resistant),,,,,MIC,,100 µg/mL
O=c1n(-c2ccccc2)c(=O)n2c(=O)n(-c3ccccc3)c(=O)n12,H37Rv,resazurin,,,,MIC bound,,>6.25 µg/mL
CCOC(=O)c1cn(NC(N)=O)nn1,H37Rv,,,12.5 µg/mL,,inhibition,,0%
N[C@@H]1CN(c2c(F)cc3c(=O)c(C(=O)O)cn([C@@H]4C[C@@H]4F)c3c2Cl)CC12CC2,Clinical strain,resazurin,,,,MIC50,Pre-XDR (fluoroquinolone-resistant),0.25 µg/mL
CCCCc1cc(C(=O)NN)c2ccccc2n1,H37Rv,BACTEC,,12.5 µg/mL,,inhibition,,-6%
COc1ccc(CNCCNCc2ccc(OC(F)(F)F)cc2)c(OC)c1,,,,,,MIC,,50 µM
O=[N+]([O-])c1cc2ncccc2c2ncccc12,EMB-R,,,,,MIC,,6.3 µg/mL
S=c1oc2ccc(Br)cc2c(=S)n1-c1ccc(Br)cc1,My 331/88,,,,21 d,MIC,,2 µM
O=c1[nH]c2cc([N+](=O)[O-])ccc2c(O)c1N=Nc1ccc(Br)cc1,H37Rv,resazurin,,,,MIC,,<6.25 µg/mL
CC1C(C(N)=O)C(=O)OC1(C)C,H37Rv,BACTEC,,,,MIC bound,,>12.5 µg/mL
Cc1cc(C)c(C(=O)c2cn(-c3ccccc3)nn2)c(C)c1,H37Rv,,,12.5 µg/mL,,inhibition,,10%
CCCCCCSC(=S)NC1c2ccccc2Oc2ccccc21,H37Rv,resazurin,,,,MIC bound,,>6.25 µg/mL
O=C1NC(=O)/C(=C/c2cccc(OCc3ccc(Cl)cc3)c2)N1,H37Rv,,,,,EC50,,<6.25 µg/mL
Cc1ccc2oc(=O)n(-c3ccc(Br)cc3)c(=S)c2c1,My 331/88,,,,21 d,MIC,,0.5 µM
O=C(Oc1cc(Cl)ccc1C(=O)Nc1ccc(Br)cc1)c1cnccn1,H37Rv 331/88,,,,21 d,MIC,,2 µM
CC(C)(C)C1=CC(=N\S(=O)(=O)c2ccccc2)/C(N=[N+]=[N-])=C(Cl)C/1=N/S(=O)(=O)c1ccccc1,H37Rv,BACTEC,,,,MIC bound,,>12.5 µg/mL
Cc1ccc(-n2c(=O)oc3ccc(F)cc3c2=S)cc1,My 331/88,,,,21 d,MIC,,2 µM
Cc1ccc(OC/C(N)=N\NC(=O)c2ccncc2)cc1,16 isolates,,,,,MIC50,,3.12 µg/mL
O=C1c2cscc2C(=O)c2sccc21,H37Rv,resazurin,,,,MIC bound,,>6.25 µg/mL
O=C(Oc1cc(Cl)ccc1C(=O)Nc1ccc(C(F)(F)F)cc1)c1cnccn1,extensively drug resistant Praha 131,,,,14 d,MIC,,0.125 µM
Cc1ccc(C)n1-c1ccsc1C(=O)NNC(=O)C(Cl)(Cl)Cl,H37Rv,BACTEC,,,,MIC bound,,>12.5 µg/mL
COc1ccc(OC)c(CCNCCNCCC2=CCCCC2)c1,,,,,,MIC,,12.5 µM
CCOc1ccc(/C=C2\C(=O)N(/C=C3/C(=O)Oc4ccccc4C3=O)C(=NC(C)=O)N2C)cc1,H37Rv,BACTEC,,,,MIC bound,,>12.5 µg/mL
CCOc1ccccc1CNCCNC12CC3CC(CC(C3)C1)C2,,,,,,MIC,,25 µM

Inhibition is in % at the dose shown (toxicity tests: loss of growth or viability). MIC50, MIC90 and the like: level of inhibition, or share of isolates inhibited. Lines come from different laboratories, so protocols vary. An empty or dashed field is not shown. ECn is the concentration giving n% inhibition of infection, replication or growth.